Human monoclonal antibodies against the spike receptor-binding domain (heavy:light variable regions). IC50 against pseudoviruses bearing the spike of naturally observed variants; lower = stronger; >10 µg/ml means not reached at the top dose. No active / inactive call. The stated detection limit is 0.0005 µg/ml; values near or below 0.001 µg/ml lie at the floor of the assay.
B1: BD56-277 (protein)
chain 1: QVQLVQSGAEVKKPGSSVKVSCKASGGTFSSYAISWVRQAPGQGLEWMGRIIPILGIANYAQKFQGRVIITADKSTSTAYMELSSLRSEDTAVYYCLLREMATDYWGQGTLVTVSS
chain 2: SYELTQPPSVSVSPGQTASITCSGDKLGDKYAHWYQQKPGQSPVLVIYEDNKRPSGIPERFSGSNSGNTATLTISGTQAMDEADYYCQAWDSTTEVFGTGTKVTVL
B2: BD58-0416 (protein)
chain 1: EVQLVESGGGLVQPGGSLRLSCAASGFTFSSYEMNWVRQAPGKGLEWVSYISSSGSTIYYADSVKGRFTISRDNAKNSLYLQMNSLRAEDTAVYYCAISLGVPGAMPSYYYFGMDVWGQGTTVTVSS
chain 2: QSVLTQPPSASGTPGQRVTISCSGSSSNIGSNYIYWYQQLPGTAPKLLIYSNNQRPSGVPDRFSGSKSGTSASLAISGLRSEDEADYYCATWDDSLSGWVFGGGTKLTVL
B3: BD58-0422 (protein)
chain 1: EVQLVESGGGLVQPGGSLRLSCAASGFTFSIYSMNWVRQAPGKGLEWVSYISRSSSTIYYADSVKGRFTISRDNAKNSLYLQMNSLRDEDTAVYYCAREGVGDIVLIPAAMEFDYWGQGTLVTVSS
chain 2: QSVLTQPPSVSGAPGQRVTISCTGSSSNIGAGYDVHWYQQLPGTAPKLLIYGNNNRPSGVPDRFSGSKSGTSASLAITGLQGEDEADYYCQSYDTGLSGVVFGGGTKLTVL
B4: BD58-0447 (protein)
chain 1: QVQLVESGGGVVQPGRSLRLSCAASGFTLSSYAMHWVRQAPGKGLEWVAVISLDGSNKYYADSVKGRFTISRDNSKDTLYLQMNSLRTEDTAVYYCASTLDYGDLPYDYWGQGTLVTVSS
chain 2: EIVLTQSPDFQSVTPKEKVTITCRASQSIGSSLHWYQQKPDQSPKLLIKYASQSISGVPSRFSGSGSGTDFTLTINSLEAEDAAAYYCHQSSSLPLTFGPGTKVDIK
B5: BD58-0444 (protein)
chain 1: QVQLVQSGAEVKKPGASVKVSCKTSGYTFTGYYMHWVRQAPGQGLQWMGWINPNSGGTNYAQKFQGRVTMTRDTSISIAYMELSRLRSDDTAVYYCARDSGYCSSISCSPTDYWGQGTLVTVSS
chain 2: DIQMTQSPSSLSASVGDRVTITCQASQDISNHLNWYQQKPGKAPKLLIYDASNLETGVPSRFSGSGSGTDFTFTISSLQPEDIATYYCQLYDNLLLTWTFGQGTKVEIK
B6: BD58-0455 (protein)
chain 1: EVQLVESGGGLVQPGGSLRLSCAASGFTFSSYWMHWVRQAPGKGLVWVSRINSDGSRTSYADSVKGRFTISRDNAKNTLYLQMNSLRAEDTAVYYCARDLIMTTETIEGRDYWGQGTLVTVSS
chain 2: NFMLTQPHSVSESPGKTVTISCTGSSGSIANNYVQWYQQRPGSAPTTVIYEDNQRPSGVPDRFSGSIDSSSNSASLTISGLKTEDEADYYCQSYDNSDWVFGGGTKLTVL
B7: BD58-0437 (protein)
chain 1: QVQLVVSGGGLVKPGGSLRVSCAASGFTFSDYYMSWIRQAPGKGLEWVSYISSSGSTIYYADSVKGRFTISRDNAKNSLYLQMNSLRAEDTAVYYCARGLNGDLDYWGQGTLVTVSS
chain 2: DIQMTQSPSTLSASVGDRVTITCRASQSISSWLAWYQQKPGKAPNLLIYMASSLEGGVPSRFSGSGSGTEFTLTISSLQPDDFATYYCQQYNSYSAWTFGQGTKVEIK
B8: BD58-0423 (protein)
chain 1: QLPSQESGPGLVKPSETLSLTCTVSGASISSSTYYWGWIRQPPGKGLEWIGSIYYSGSTYYNPSLKSRVTISVDTSKKQFSLKLSSVTAADTAVYYCAMTYDSSGYPSNDAFDIWGQGTMVTVSS
chain 2: SYVLTQPPSVSVAPGKTARITCGGNNIGSKSVHWYQQKPGQAPVLVIYYDSDRPSGIPERFSGSNSGNTATLTISRVEAGDEADYYCQVWDSTSDHVLFGGGTKLTVL
B9: BD58-0451 (protein)
chain 1: QVQLQQWGAGLLKPSETLSLTCAVYGGSFSNYFWSWIRQPPGKGLEWIGEINHSGSTNYNPSLKSRVTISVDTSKNQFSLKLSSVTAADTAVYYCARVNDFGDYEYWYFDLWGRGTLVTVSS
chain 2: QSALTQPASVSGSPGQSITISCTGTSSDVGVYNYVSWYQQHPGKAPKLMIYDVSNRPSGVPDRFSGSKSGNTASLTISGLQAEDEADYYCSSYTSSSTLYVFATGTKVTVL
B10: BD58-0463 (protein)
chain 1: QVQLVQSGAEVKKPGSSVKVSCKVSGGTFSSYAISWVRQAPGQGLEWMGGIIPIFDTTHYAQKFQGRLTITADESTSAVYMELSSLRSEDTAVYYCARKGRGVRGITAMDVWGKGTTVTVSS
chain 2: DIQMTQSPSSLSASVGDRVTITCQASQDISNYLNWYQQKPGKAPKLLIYDASNLETGVPSRFSGGGSGTDFTFTISSLQPEDIATYYCQQYDNLPTFGGGTKVEIK

How the values were obtained:
Test in all cases: pseudovirus neutralization IC50; higher = weaker neutralization
[1] = target: SARS-CoV-2 Omicron BA.1 spike pseudovirus
Description: (§1)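 Single-round VSV luciferase pseudovirus mixed with antibody dilutions for 1 h and put on Huh-7 cells for about a day; IC50 from the dose curve.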

[2] = target: SARS-CoV-2 Omicron BA.2 spike pseudovirus
Description: as §1

[3] = target: SARS-CoV-2 Omicron BA.2.75 spike pseudovirus
Description: as §1

[4] = target: SARS-CoV-2 Omicron BA.2.75.2 spike pseudovirus
Description: as §1

[5] = target: SARS-CoV-2 Omicron BA.5 spike pseudovirus
Description: as §1

[6] = target: SARS-CoV-2 Omicron BM.1.1.1 spike pseudovirus
Description: as §1

[7] = target: SARS-CoV-2 Omicron BQ.1.1 spike pseudovirus
Description: as §1

[8] = target: SARS-CoV-2 Omicron BR.2 spike pseudovirus
Description: as §1

[9] = target: SARS-CoV-2 Omicron CA.1 spike pseudovirus
Description: as §1

[10] = target: SARS-CoV-2 Omicron XBB spike pseudovirus
Description: as §1

[11] = target: SARS-CoV-2 early D614G spike pseudovirus
Description: as §1

Binder	pseudovirus neutralization IC50 [1]	pseudovirus neutralization IC50 [2]	pseudovirus neutralization IC50 [3]	pseudovirus neutralization IC50 [4]	pseudovirus neutralization IC50 [5]	pseudovirus neutralization IC50 [6]	pseudovirus neutralization IC50 [7]	pseudovirus neutralization IC50 [8]	pseudovirus neutralization IC50 [9]	pseudovirus neutralization IC50 [10]	pseudovirus neutralization IC50 [11]
B1	0.118 mg/L	0.451 mg/L	0.351 mg/L	> 10 mg/L	> 10 mg/L	> 10 mg/L	> 10 mg/L	> 10 mg/L	> 10 mg/L	> 10 mg/L	> 10 mg/L
B2	0.738 mg/L	0.0068 mg/L	> 10 mg/L	> 10 mg/L	> 10 mg/L	> 10 mg/L	> 10 mg/L	> 10 mg/L	> 10 mg/L	> 10 mg/L	> 10 mg/L
B3	0.0104 mg/L	0.0156 mg/L	> 10 mg/L	> 10 mg/L	> 10 mg/L	> 10 mg/L	> 10 mg/L	> 10 mg/L	> 10 mg/L	> 10 mg/L	> 10 mg/L
B4	0.0664 mg/L	0.0369 mg/L	> 10 mg/L	> 10 mg/L	> 10 mg/L	> 10 mg/L	> 10 mg/L	> 10 mg/L	> 10 mg/L	> 10 mg/L	> 10 mg/L
B5	> 10 mg/L	0.00892 mg/L	> 10 mg/L	> 10 mg/L	> 10 mg/L	> 10 mg/L	> 10 mg/L	> 10 mg/L	> 10 mg/L	> 10 mg/L	> 10 mg/L
B6	> 10 mg/L	> 10 mg/L	> 10 mg/L	> 10 mg/L	> 10 mg/L	> 10 mg/L	> 10 mg/L	> 10 mg/L	> 10 mg/L	> 10 mg/L	> 10 mg/L
B7	0.00441 mg/L	0.00946 mg/L	> 10 mg/L	> 10 mg/L	> 10 mg/L	> 10 mg/L	> 10 mg/L	> 10 mg/L	> 10 mg/L	> 10 mg/L	> 10 mg/L
B8	> 10 mg/L	0.137 mg/L	> 10 mg/L	> 10 mg/L	> 10 mg/L	> 10 mg/L	> 10 mg/L	> 10 mg/L	> 10 mg/L	> 10 mg/L	> 10 mg/L
B9	> 10 mg/L	0.00681 mg/L	> 10 mg/L	> 10 mg/L	> 10 mg/L	> 10 mg/L	> 10 mg/L	> 10 mg/L	> 10 mg/L	> 10 mg/L	> 10 mg/L
B10	0.000412 mg/L	0.000207 mg/L	0.000941 mg/L	> 10 mg/L	0.0167 mg/L	> 10 mg/L	0.13 mg/L	0.0104 mg/L	> 10 mg/L	> 10 mg/L	> 10 mg/L
